Source: US20240400620A1, “Compositions Containing Coronavirus Proteins and Epitopes” (priority 2021, published 2024)

How the values were obtained:
[1] = tested on: activated CD4+ T cells from OC43-infected HLA-DRB1*0101 Ifnar1^−/− mice; assay type: cell-based
[2] = tested on: splenocytes or lung leukocytes from DNA-vaccinated HLA-DRB1*0101 mice; assay type: cell-based

| Sequence | expansion of polyfunctional cross-reactive IFNγ+/TNF+ CD4+ T cells [1] | stimulation of IFNγ response (ELISpot) [2] |
| --- | --- | --- |
| KRTATKAYNVTQAFG [N261-275] | significantly expanded |  |
| TGRLQSLQTYVTQQL [S998-1012] |  | significantly stimulated a response |
